From ChEMBL document CHEMBL3045284 (Crop Prot, 2009)
In brackets after ≈: the same amount, converted by molar mass.

Key:
Pyricularia oryzae [1] = assay: Antifungal activity against drug-resistant Magnaporthe oryzae KJ113 assessed as inhibition of mycelial growth
Pyricularia oryzae [2] = assay: Antifungal activity against drug-resistant Magnaporthe oryzae IC115 assessed as inhibition of mycelial growth
Pyricularia oryzae [3] = assay: Antifungal activity against drug-resistant Magnaporthe oryzae IC068 assessed as inhibition of mycelial growth
Pyricularia oryzae [4] = assay: Antifungal activity against drug-resistant Magnaporthe oryzae DH189 assessed as inhibition of mycelial growth
Pyricularia oryzae [5] = assay: Antifungal activity against drug-sensitive Magnaporthe oryzae KH144 assessed as inhibition of mycelial growth
Pyricularia oryzae [6] = assay: Antifungal activity against drug-sensitive Magnaporthe oryzae IC029 assessed as inhibition of mycelial growth
Pyricularia oryzae [7] = assay: Antifungal activity against drug-sensitive Magnaporthe oryzae HM036 assessed as inhibition of mycelial growth
Pyricularia oryzae [8] = assay: Antifungal activity against drug-sensitive Magnaporthe oryzae HM025 assessed as inhibition of mycelial growth
Pyricularia oryzae [9] = assay: Antifungal activity against drug-resistant Magnaporthe oryzae infected six-leaf stage of rice plant assessed susceptible lesion number per leaf area treated 24 hr before fungal infection measured after 24 hr
Pyricularia oryzae [10] = assay: Antifungal activity against drug-resistant Magnaporthe oryzae KJ163 assessed as inhibition of mycelial growth
Pyricularia oryzae [11] = assay: Antifungal activity against drug-resistant Magnaporthe oryzae KJ120 assessed as inhibition of mycelial growth
Pyricularia oryzae [12] = assay: Antifungal activity against drug-resistant Magnaporthe oryzae HM158 assessed as inhibition of mycelial growth
Pyricularia oryzae [13] = assay: Antifungal activity against drug-resistant Magnaporthe oryzae DH156 assessed as inhibition of mycelial growth
Pyricularia oryzae [14] = assay: Antifungal activity against drug-sensitive Magnaporthe oryzae KN144 assessed as inhibition of mycelial growth
Pyricularia oryzae [15] = assay: Antifungal activity against drug-sensitive Magnaporthe oryzae KH146 assessed as inhibition of mycelial growth
Pyricularia oryzae [16] = assay: Antifungal activity against drug-sensitive Magnaporthe oryzae CC134 assessed as inhibition of mycelial growth
Pyricularia oryzae [17] = assay: Antifungal activity against drug-sensitive Magnaporthe oryzae CC056 assessed as inhibition of mycelial growth

Compound	EC50 (Pyricularia oryzae [1]) [µg/mL]	EC50 (Pyricularia oryzae [2]) [µg/mL]	EC50 (Pyricularia oryzae [3]) [µg/mL]	EC50 (Pyricularia oryzae [4]) [µg/mL]	EC50 (Pyricularia oryzae [5]) [µg/mL]	EC50 (Pyricularia oryzae [6]) [µg/mL]	EC50 (Pyricularia oryzae [7]) [µg/mL]	EC50 (Pyricularia oryzae [8]) [µg/mL]	Activity (Pyricularia oryzae [9]) [cm2]	EC50 (Pyricularia oryzae [10]) [µg/mL]	EC50 (Pyricularia oryzae [11]) [µg/mL]	EC50 (Pyricularia oryzae [12]) [µg/mL]	EC50 (Pyricularia oryzae [13]) [µg/mL]	EC50 (Pyricularia oryzae [14]) [µg/mL]	EC50 (Pyricularia oryzae [15]) [µg/mL]	EC50 (Pyricularia oryzae [16]) [µg/mL]	EC50 (Pyricularia oryzae [17]) [µg/mL]
CCOP(=O)(Sc1ccccc1)Sc1ccccc1 [EDIFENPHOS]	9.94 (≈ 32 µM)	9.44 (≈ 30.4 µM)	9.91 (≈ 31.9 µM)	7.93 (≈ 25.5 µM)	3.58 (≈ 11.5 µM)	5.84 (≈ 18.8 µM)	2.41 (≈ 7.76 µM)	2.97 (≈ 9.57 µM)	0.2	–	–	–	–	–	–	–	–
CC(C)OP(=O)(OC(C)C)SCc1ccccc1 [IPROBENFOS]	–	–	–	–	–	–	–	–	1.6	26 (≈ 90.1 µM)	29.7 (≈ 103 µM)	42.1 (≈ 146 µM)	27.1 (≈ 94 µM)	8.88 (≈ 30.8 µM)	8.76 (≈ 30.4 µM)	8.92 (≈ 30.9 µM)	10.7 (≈ 37.2 µM)
